Results as given in patent publication US20220089698A1, “ANTIBODIES THAT TARGET HIV GP120 AND METHODS OF USE” (published 2022).

Legend:
Assay in all cases: cell-based or functional assay
[1] = molecular target: HIV-1 envelope glycoprotein gp120 of viral isolate 92US712 (HIV-1)
[2] = molecular target: HIV-1 envelope glycoprotein gp120 of viral isolate 92US657 (HIV-1)
[3] = molecular target: HIV-1 envelope glycoprotein gp120 of viral clone VS001 (HIV-1)
[4] = molecular target: HIV-1 envelope glycoprotein gp120 of viral clone VS002 (HIV-1)
[5] = molecular target: HIV-1 envelope glycoprotein gp120 of viral clone VS003 (HIV-1)
[6] = molecular target: HIV-1 envelope glycoprotein gp120 of viral clone VS004 (HIV-1)
[7] = molecular target: HIV-1 envelope glycoprotein gp120 of viral clone VS007 (HIV-1)
[8] = molecular target: HIV-1 envelope glycoprotein gp120 of viral clone VS008 (HIV-1)
[9] = molecular target: HIV-1 envelope glycoprotein gp120 of viral clone VS010 (HIV-1)
[10] = molecular target: HIV-1 envelope glycoprotein gp120 of viral clone VS011 (HIV-1)
[11] = molecular target: HIV-1 envelope glycoprotein gp120 of viral clone VS017 (HIV-1)
[12] = molecular target: HIV-1 envelope glycoprotein gp120 of viral clone VS023 (HIV-1)
[13] = molecular target: HIV-1 envelope glycoprotein gp120 of viral clone VS026 (HIV-1)
[14] = molecular target: HIV-1 envelope glycoprotein gp120 of viral clone VS029 (HIV-1)
[15] = molecular target: HIV-1 envelope glycoprotein gp120 of viral clone VS030 (HIV-1)
[16] = molecular target: HIV-1 envelope glycoprotein gp120 of viral clone VS032 (HIV-1)
[17] = molecular target: HIV-1 envelope glycoprotein gp120 of viral clone VS033 (HIV-1)
[18] = molecular target: HIV-1 envelope glycoprotein gp120 of viral clone VS034 (HIV-1)
[19] = molecular target: HIV-1 envelope glycoprotein gp120 of viral clone VS038 (HIV-1)
[20] = molecular target: HIV-1 envelope glycoprotein gp120 of viral clone VS042 (HIV-1)
[21] = molecular target: HIV-1 envelope glycoprotein gp120 of viral clone VS044 (HIV-1)
[22] = molecular target: HIV-1 envelope glycoprotein gp120 of viral clone VS046 (HIV-1)
[23] = molecular target: HIV-1 envelope glycoprotein gp120 of viral clone VS049 (HIV-1)
[24] = molecular target: HIV-1 envelope glycoprotein gp120 of viral clone VS052 (HIV-1)
[25] = molecular target: T1, HIV-1 envelope glycoprotein gp120 of viral isolate 8176 (HIV-1)
[26] = molecular target: T2, HIV-1 envelope glycoprotein gp120 of viral isolate 302076 (HIV-1)
[27] = molecular target: T3, HIV-1 envelope glycoprotein gp120 of viral isolate 8398 (HIV-1)
[28] = molecular target: T1, HIV-1 envelope glycoprotein gp120 of …; remark: listed apart in the source
[29] = molecular target: T2, HIV-1 envelope glycoprotein gp120 of …; remark: listed apart in the source
[30] = molecular target: T3, HIV-1 envelope glycoprotein gp120 of …; remark: listed apart in the source
[31] = molecular target: T1, HIV-1 envelope glycoprotein gp120 of …; remark: listed apart in the source
[32] = molecular target: T2, HIV-1 envelope glycoprotein gp120 of …; remark: listed apart in the source
[33] = molecular target: T3, HIV-1 envelope glycoprotein gp120 of …; remark: listed apart in the source
[34] = molecular target: T1, HIV-1 envelope glycoprotein gp120 of …; remark: listed apart in the source
[35] = molecular target: T2, HIV-1 envelope glycoprotein gp120 of …; remark: listed apart in the source
[36] = molecular target: T3, HIV-1 envelope glycoprotein gp120 of …; remark: listed apart in the source
[37] = molecular target: T1, HIV-1 envelope glycoprotein gp120 of …; remark: listed apart in the source
[38] = molecular target: T1, HIV-1 envelope glycoprotein gp120 of …; remark: listed apart in the source

B1: Antibody A-1 (antibody, human IgG1, kappa)
heavy: QVQLLQSGAAVTKPGASVRVSCEASGYNIRDYFIHWWRQAPGQGLQWVGWINPKTGQPNNPRQFQGRVSLTRHASWDFDTFSFYMDLKALRSDDTAVYFCARQRSDYWDFDVWGSGTQVTVSSASTKGPSVFPLAPSSKSTSGGTAALGCLVKDYFPEPVTVSWNSGALTSGVHTFPAVLQSSGLYSLSSVVTVPSSSLGTQTYICNVNHKPSNTKVDKKVEPKSCDKTHTCPPCPAPELLAGPDVFLFPPKPKDTLMISRTPEVTCVVVDVSHEDPEVKFNWYVDGVEVHNAKTKPREEQYNSTYRVVSVLTVLHQDWLNGKEYKCKVSNKALPLPEEKTISKAKGQPREPQVYTLPPSREEMTKNQVSLTCLVKGFYPSDIAVEWESNGQPENNYKTTPPVLDSDGSFFLYSKLTVDKSRWQQGNVFSCSVLHEALHSHYTQKSLSLSPGK
light: not shown
[1]
  ADCC EC50 (µg/mL), NK Donor 1, 92US712-infected cells: 0.19 µg/mL
  ADCC EC50 (µg/mL), NK Donor 2, 92US712-infected cells: 0.09 µg/mL
  ADCC EC50 (µg/mL), NK Donor 3, 92US712-infected cells: 0.16 µg/mL
  ADCC Emax (%), NK Donor 1, 92US712-infected cells: 77%
  ADCC Emax (%), NK Donor 2, 92US712-infected cells: 62%
  ADCC Emax (%), NK Donor 3, 92US712-infected cells: 62%
[2]
  ADCC EC50 (µg/mL), NK Donor 1, 92US657-infected cells: 0.74 µg/mL
  ADCC EC50 (µg/mL), NK Donor 2, 92US657-infected cells: 0.55 µg/mL
  ADCC EC50 (µg/mL), NK Donor 3, 92US657-infected cells: 0.37 µg/mL
  ADCC Emax (%), NK Donor 1, 92US657-infected cells: 58%
  ADCC Emax (%), NK Donor 2, 92US657-infected cells: 50%
  ADCC Emax (%), NK Donor 3, 92US657-infected cells: 52%
[3]
  ADCC Emax (%) average from two donors: 26.8%
[4]
  ADCC Emax (%) average from two donors: 22.9%
[5]
  ADCC Emax (%) average from two donors: 44.4%
[6]
  ADCC Emax (%) average from two donors: 31.7%
[7]
  ADCC Emax (%) average from two donors: 45%
[8]
  ADCC Emax (%) average from two donors: 60%
[9]
  ADCC Emax (%) average from two donors: 69%
[10]
  ADCC Emax (%) average from two donors: 34.6%
[11]
  ADCC Emax (%) average from two donors: 40.5%
[12]
  ADCC Emax (%) average from two donors: 0.8%
[13]
  ADCC Emax (%) average from two donors: 31.3%
[14]
  ADCC Emax (%) average from two donors: 1.5%
[15]
  ADCC Emax (%) average from two donors: 39.3%
[16]
  ADCC Emax (%) average from two donors: 29.1%
[17]
  ADCC Emax (%) average from two donors: 31.1%
[18]
  ADCC Emax (%) average from two donors: 40.6%
[19]
  ADCC Emax (%) average from two donors: 36.1%
[20]
  ADCC Emax (%) average from two donors: 39.6%
[21]
  ADCC Emax (%) average from two donors: 31.4%
[22]
  ADCC Emax (%) average from two donors: 41.9%
[23]
  ADCC Emax (%) average from two donors: 7.8%
[24]
  ADCC Emax (%) average from two donors: 34%
[25]
  Killing AUC by NK cells, donor 0117: 108
  Killing AUC by NK cells, donor 3594: 142
[26]
  Killing AUC by NK cells, donor 0117: 116
  Killing AUC by NK cells, donor 3594: 76
[27]
  Killing AUC by NK cells, donor 0117: 4
  Killing AUC by NK cells, donor 3594: 6
[28]
  Killing EC50 by NK cells, donor 0117: 1.1 µg/mL
  Killing EC50 by NK cells, donor 3594: 0.518 µg/mL
[29]
  Killing EC50 by NK cells, donor 0117: 1.7 µg/mL
  Killing EC50 by NK cells, donor 3594: 2.61 µg/mL
[30]
  Killing EC50 by NK cells, donor 0117: > 100 µg/mL
  Killing EC50 by NK cells, donor 3594: > 100 µg/mL
[31]
  Killing AUC by monocytes, donor 0117: 83
  Killing AUC by monocytes, donor 3594: 141
[32]
  Killing AUC by monocytes, donor 0117: 54
  Killing AUC by monocytes, donor 3594: 166
[33]
  Killing AUC by monocytes, donor 0117: 0
  Killing AUC by monocytes, donor 3594: 13
[34]
  Killing EC50 by monocytes, donor 0117: 0.402 µg/mL
  Killing EC50 by monocytes, donor 3594: 0.309 µg/mL
[35]
  Killing EC50 by monocytes, donor 0117: 6.51 µg/mL
  Killing EC50 by monocytes, donor 3594: 0.062 µg/mL
[36]
  Killing EC50 by monocytes, donor 0117: > 100 µg/mL
  Killing EC50 by monocytes, donor 3594: > 100 µg/mL
[37]
  Killing AUC by neutrophils, donor 92132: 74
  Killing AUC by neutrophils, donor 92602: 47
[38]
  Killing EC50 by neutrophils, donor 92132: 0.231 µg/mL
  Killing EC50 by neutrophils, donor 92602: 1.1 µg/mL
